Results of unrelated studies side by side (data: NIAID ChemDB).

All rows: tests on isolated targets

An empty or dashed field is not shown. Fold resistance: result on the changed form divided by that on wild type. Percent inhibition refers to the dose given; in toxicity tests it is the harm to the cells. ICn is the concentration giving n% inhibition. a–b is a range or a potency band. Rows are shuffled and stem from different studies.

structure | agent | strain | changes | protein | read by | read-out | dose | result
CC(C)(CCN)CN(C[C@@H](O)[C@H](Cc1ccccc1)NC(=O)O[C@H]1CO[C@H]2OCC[C@H]21)S(=O)(=O)c1ccc2c(c1)OCO2 | HIV-1 | - | - | Protease | fluorescence | Ki | - | <0.001 µM
O=[N+]([O-])c1ccc(S(=O)(=O)Nc2cccc(-c3nc4ccccc4[nH]3)c2)cc1 | HIV-1 | - | - | gp120 + CD4 | ELISA / entry | IC50 | - | 0.02363 µM
COC(=O)NCCCCC(C)(C)CN(C[C@@H](O)[C@H](Cc1ccccc1)NC(=O)O[C@H]1CO[C@H]2OCC[C@H]21)S(=O)(=O)c1cccc2c1OCCO2 | HIV-1 | - | - | Protease | fluorescence | Ki | - | <0.001 µM
CC(C)CNc1nc(OCCc2ccc([N+](=O)[O-])cc2)c2ncn([C@@H]3O[C@H](COP(O)(=S)O[C@H]4[C@@H](F)[C@H](n5cnc6c(N)ncnc65)O[C@@H]4CO)[C@@H](O)[C@H]3O)c2n1 | HIV-1 | - | - | RNase H | RNase H | inhibition | 50 µM | 3%
COc1ccc(OCCCN)c(CNCCCCN=C(N)N)c1 | HIV-1 | - | - | Tat:TAR/LTR | FRET | Ki | - | 3.4 µM
O=[N+]([O-])c1ccccc1S(=O)(=O)Nc1ccc(-c2nc3ccccc3[nH]2)cc1 | HIV-1 | - | - | gp120 + CD4 | ELISA / entry | IC50 | - | 0.02877 µM
CCN1c2ncc(CCOc3ccc(S(=O)(=O)NCC(=O)O)c4ccccc34)cc2C(=O)N(C)c2cccnc21 | HIV-1 | - | RT-V106A | Reverse transcriptase | nucleotide incorporation / radiometric | fold resistance | - | 1–10
NC(N)=NCCCCNCc1cc(-c2cccs2)ccc1OCCN=C(N)N | HIV-1 | - | - | Tat:TAR/LTR | FRET | Ki | - | 0.86 µM
CC(C)(CCNC(=O)NCc1ccccc1)CN(C[C@@H](O)[C@H](Cc1ccccc1)NC(=O)O[C@H]1CO[C@H]2OCC[C@H]21)S(=O)(=O)c1ccc2c(c1)OCO2 | HIV-1 | - | - | Protease | fluorescence | Ki | - | <0.001 µM
CNC(=O)c1cc2cc(-c3ccc(OCCCN)c(CNCC4CCNCC4)c3)ccc2o1 | HIV-1 | - | - | Tat:TAR/LTR | FRET | Ki | - | 3.36 µM
Cn1cc(C(=O)O)c(=O)c2cc(N)c(N3CCN(c4ccccn4)CC3)cc21 | HIV-1 | - | - | Tat:TAR/LTR | gel | Ki | - | 3.5 µM
CCN1c2ncc(CCOc3ccc(CCC(=O)O)c4ccccc34)cc2C(=O)Nc2c(C)cc(F)nc21 | HIV-1 | WT | - | Reverse transcriptase | nucleotide incorporation / radiometric | IC50 | - | <0.1 µM
CN(C)C(=NCCCCC(C)(C)CN(C[C@@H](O)[C@H](Cc1ccccc1)NC(=O)O[C@H]1CO[C@H]2OCC[C@H]21)S(=O)(=O)c1ccc2c(c1)OCO2)NC#N | HIV-1 | - | - | Protease | fluorescence | Ki | - | <0.001 µM
Nc1nc2c(ncn2[C@@H]2O[C@H](COP(=O)(O)O[C@H]3[C@@H](O)[C@H](n4cnc5c(=O)[nH]c(N)nc54)O[C@@H]3CO)[C@@H](O)[C@H]2O)c(=O)[nH]1 | HIV-1 | - | - | RNase H | RNase H | inhibition | 50 µM | 80%
CCCS(=O)(=O)NCCC(C)(C)CN(C[C@@H](O)[C@H](Cc1ccccc1)NC(=O)O[C@H]1CO[C@H]2OCC[C@H]21)S(=O)(=O)c1ccc2c(c1)OCO2 | HIV-1 | - | - | Protease | fluorescence | Ki | - | <0.001 µM
COc1ccc(Nc2nc(-c3cccnc3)nc3ccccc23)cc1OC | HIV-1 | - | - | Capsid | AlphaScreen | IC50 | - | >200 µM
CCCCCCCCC[C@H]1CC2CCC3C(C(=O)OCCCCCCCCCC4N=C(N)N5CCCC5=C4C(=O)OCCCCN=C(N)N)[C@@H](C)N=C(N1)N23 | HIV-1 | - | - | gp120 | - | IC50 | - | 10 µM
CCN1c2ncc(CCOc3ccc4cc(CC(=O)O)ccc4c3)cc2C(=O)N(C)c2cccnc21 | HIV-1 | - | RT-V106A | Reverse transcriptase | nucleotide incorporation / radiometric | fold resistance | - | 1–10
CC(C)(CCCN)CN(C[C@@H](O)[C@H](Cc1ccccc1)NC(=O)O[C@H]1CO[C@H]2OCC[C@H]21)S(=O)(=O)c1cccc2c1OCCO2 | HIV-1 | - | - | Protease | fluorescence | Ki | - | <0.001 µM
Nc1nc2c(ncn2[C@@H]2O[C@H](COCO[C@@H]3[C@H](O)[C@@H](CO)O[C@H]3n3cnc4c(N)ncnc43)[C@@H](O)[C@H]2O)c(=O)[nH]1 | HIV-1 | - | - | RNase H | RNase H | inhibition | 50 µM | 5%
Cc1cc(C(=O)c2ccc([N+](=O)[O-])cc2)c(-c2ccccc2)n1-c1ccc(C(=O)O)c(O)c1 | HIV-1 | - | - | gp41 | fluorescence | IC50 | - | 123 µg/mL
CC(C)OC(=O)NCCCCCC(C)(C)CN(C[C@@H](O)[C@H](Cc1ccccc1)NC(=O)O[C@H]1CO[C@H]2OCC[C@H]21)S(=O)(=O)c1ccc2c(c1)OCO2 | HIV-1 | - | - | Protease | fluorescence | Ki | - | <0.001 µM
NCCCOc1ccc(-c2cccs2)cc1CNCCCCN=C(N)N | HIV-1 | - | - | Tat:TAR/LTR | FRET | Ki | - | 0.86 µM
Nc1ccn([C@@H]2CS[C@H](COP(=O)(O)OP(=O)(O)OP(=O)(O)O)O2)c(=O)n1 | HIV | - | RT-K65R K103N Q151M | Reverse transcriptase | radiometric | Ki | - | 0.364 µM
CN(C)c1ccc(Nc2nc(-c3ccc(Cl)cc3Cl)nc3ccccc23)cc1 | HIV-1 | - | - | Capsid | AlphaScreen | IC50 | - | 28.6 µM
N#CC1C=Cc2ccccc2N1C(=O)c1ccc(Cl)cc1 | HIV-2 | - | - | Reverse transcriptase | nucleotide incorporation | inhibition | 100 µM | 0%
CCCCN(CCCC)c1nc(OCCc2ccc([N+](=O)[O-])cc2)c2ncn([C@@H]3O[C@H](COP(O)(O)=S)[C@@H](O)[C@H]3O)c2n1 | HIV-1 | - | - | RNase H | RNase H | inhibition | 50 µM | 90%
COC(=O)NCCCC(C)(C)CN(C[C@@H](O)[C@H](Cc1ccccc1)NC(=O)O[C@H]1CO[C@H]2OCC[C@H]21)S(=O)(=O)c1cccc2c1OCCO2 | HIV-1 | - | - | Protease | fluorescence | Ki | - | <0.001 µM
Nc1nc2c(ncn2[C@@H]2O[C@H](COP(O)(=S)OC3C[C@H](n4cnc5c(=O)[nH]c(N)nc54)O[C@@H]3CO)[C@@H](O)[C@H]2O)c(=O)[nH]1 | HIV-1 | - | - | RNase H | RNase H | inhibition | 50 µM | 65%
COC(=O)NCCCCC(C)(C)CN(C[C@@H](O)[C@H](Cc1ccccc1)NC(=O)O[C@H]1CO[C@H]2OCC[C@H]21)S(=O)(=O)c1cccc(N)c1 | HIV-1 | - | - | Protease | fluorescence | Ki | - | <0.001 µM
CC(C)(C)c1ccc(S(=O)(=O)Nc2cccc(-c3nc4ccccc4[nH]3)c2)cc1 | HIV-1 | - | - | gp120 + CD4 | ELISA / entry | IC50 | - | 0.02535 µM
CN(C)C(=O)NCCCCC(C)(C)CN(C[C@@H](O)[C@H](Cc1ccccc1)NC(=O)O[C@H]1CO[C@H]2OCC[C@H]21)S(=O)(=O)c1cccc(N)c1 | HIV-1 | - | - | Protease | fluorescence | Ki | - | <0.001 µM
c1ccc2c(NCCCn3ccnc3)nc(-c3ccncc3)nc2c1 | HIV-1 | - | - | Capsid | AlphaScreen | IC50 | - | >200 µM
NCCCOc1ccc(-c2ccc3occc(=O)c3c2)cc1CNCC1CCNCC1 | HIV-1 | - | - | Tat:TAR/LTR | FRET | Ki | - | 3.04 µM
CC(=O)c1cc(C)n(-c2ccc(C(=O)O)c(O)c2)c1-c1ccccc1 | HIV-1 | - | - | gp41 | fluorescence | IC50 | - | 500 µg/mL
CCN1c2ncc(CCOc3ccc(NC(=O)CCC(=O)O)c4ccccc34)cc2C(=O)N(C)c2cccnc21 | HIV-1 | - | RT-K103N Y181C | Reverse transcriptase | nucleotide incorporation / radiometric | fold resistance | - | 1–10
Nc1nc2c(ncn2[C@@H]2O[C@H](COP(=O)(O)O[C@H]3[C@@H](O)[C@H](n4cnc5c(N)ncnc54)O[C@@H]3CO)[C@@H](O)[C@H]2O)c(=O)[nH]1 | HIV-1 | - | - | RNase H | RNase H | inhibition | 50 µM | 8%
COc1ccc(S(=O)(=O)O)cc1N=Nc1c(S(=O)(=O)O)cc2cc(Nc3nc(Nc4ccccc4)nc(Nc4cc(C)c(N=Nc5cc(S(=O)(=O)O)cc6cc(S(=O)(=O)O)cc(O)c56)cc4OC)n3)ccc2c1O | HIV-1 | - | - | gp41 | ELISA | IC50 | - | ~1.2 µg/mL
c1cncc(-c2nc(Nc3ccc4n[nH]nc4c3)c3ccccc3n2)c1 | HIV-1 | - | - | Capsid | AlphaScreen | IC50 | - | 1.9 µM
NC(=O)c1ccn2c1CS[C@@H]2c1cccnc1 | HIV-1 | - | - | Tat:TAR/LTR | - | inhibition | 100 µM | ~40%
Cc1ccc(S(=O)(=O)Nc2ccc(Cc3nc4ccccc4[nH]3)cc2)cc1 | HIV-1 | - | - | gp120 + CD4 | ELISA / entry | IC50 | - | 0.02334 µM
CCOCn1c(Sc2ccccc2)c(CC)c(=O)[nH]c1=O | HIV | - | RT-F61L | Reverse transcriptase | nucleotide incorporation | fold resistance | - | 0.5
CCCNC(=S)NCCC(C)(C)CN(C[C@@H](O)[C@H](Cc1ccccc1)NC(=O)O[C@H]1CO[C@H]2OCC[C@H]21)S(=O)(=O)c1ccc2c(c1)OCO2 | HIV-1 | - | - | Protease | fluorescence | Ki | - | <0.001 µM
Oc1cc(O)cc(Oc2c(O)cc(O)c3c2Oc2c(O)cc(Oc4c(O)cc(Oc5c(O)cc(O)c6c5Oc5c(O)cc(O)cc5O6)cc4O)cc2O3)c1 | HIV-1 | - | - | Reverse transcriptase + Protease | HPLC | IC50 | - | 36.9 µM
CC[C@H](C)[C@H](N)C(=O)N[C@@H](CC(N)=O)C(=O)N[C@@H](CC(N)=O)C(=O)N[C@H](C(=O)N1CCC[C@H]1C(=O)N[C@@H](Cc1c[nH]c2ccccc12)C(=O)N[C@@H](CO)C(=O)O)[C@@H](C)CC | HIV-1 | HXB2 | - | gp120 | ELISA | IC50 | - | 610 µM
C#CCOC(=O)NCCC(C)(C)CN(C[C@@H](O)[C@H](Cc1ccccc1)NC(=O)O[C@H]1CO[C@H]2OCC[C@H]21)S(=O)(=O)c1ccc2c(c1)OCO2 | HIV-1 | - | - | Protease | fluorescence | Ki | - | <0.001 µM
CCCC(C)Nc1nc2c(ncn2[C@@H]2O[C@H](COP(O)(=S)O[C@H]3C[C@H](n4cnc5c(N)ncnc54)O[C@@H]3CO)[C@@H](O)[C@H]2O)c(=O)[nH]1 | HIV-1 | - | - | RNase H | RNase H | inhibition | 50 µM | 5%
CCCCCCCCC[C@H]1CC2CCC3C(C(=O)OCCCCN=C(N)N)[C@@H](C)N=C(N1)N23 | HIV-1 | - | - | gp120 | - | IC50 | - | >100 µM
CCOC(=O)NCCCC(C)(C)CN(C[C@@H](O)[C@H](Cc1ccccc1)NC(=O)O[C@H]1CO[C@H]2OCC[C@H]21)S(=O)(=O)c1ccc(N)cc1 | HIV-1 | - | - | Protease | fluorescence | Ki | - | <0.001 µM
CC(C)(C)c1ccc(S(=O)(=O)Nc2ccc(-c3nc4ccccc4[nH]3)cc2)cc1 | HIV-1 | - | - | gp120 + CD4 | ELISA / entry | IC50 | - | 0.02745 µM
O=C([C@H]1O[C@H]2CN(Cc3ccccc3)C(=O)[C@@H]1O2)N1CCSCC1 | HIV-1 | - | - | Protease | FRET | inhibition | 10 µM | 0%
CC[C@H](C)[C@H](NC(=O)[C@@H](N)CC(N)=O)C(=O)N1CCC[C@H]1C(=O)N[C@@H](Cc1c[nH]c2ccccc12)C(=O)N[C@@H](CO)C(=O)N[C@@H](CCC(=O)O)C(=O)N[C@@H](C)C(=O)O | HIV-1 | HXB2 | - | gp120 | ELISA | IC50 | - | >500 µM
CCN1c2ncc(CCOc3ccc(/C=C(\C)C(=O)O)c4ccccc34)cc2C(=O)Nc2c(C)ccnc21 | HIV-1 | - | RT-Y188L | Reverse transcriptase | nucleotide incorporation / radiometric | IC50 | - | >1 µM
CC(C)(CCCCN)CN(C[C@@H](O)[C@H](Cc1ccccc1)NC(=O)O[C@H]1CO[C@H]2OCC[C@H]21)S(=O)(=O)c1cccc2c1OCO2 | HIV-1 | - | - | Protease | fluorescence | Ki | - | <0.001 µM
CC(C)CCNC(=O)[C@@H]1O[C@H]2O[C@@H]1C(=O)N(Cc1ccccc1)[C@H]2Cc1ccccc1 | HIV-1 | - | - | Protease | FRET | inhibition | 1 µM | 0%
COC(=O)NCC(=O)NCCCCC(C)(C)CN(C[C@@H](O)[C@H](Cc1ccccc1)NC(=O)O[C@H]1CO[C@H]2OCC[C@H]21)S(=O)(=O)c1ccc2c(c1)OCO2 | HIV-1 | - | - | Protease | fluorescence | Ki | - | <0.001 µM
CCN1c2ncc(CCOc3ccc(/C=C(\C)C(=O)O)c4ccccc34)cc2C(=O)N(C)c2ccc(C)nc21 | HIV-1 | - | RT-V106A | Reverse transcriptase | nucleotide incorporation / radiometric | fold resistance | - | >10
CN(C)C(=O)NCCCC(C)(C)CN(C[C@@H](O)[C@H](Cc1ccccc1)NC(=O)O[C@H]1CO[C@H]2OCC[C@H]21)S(=O)(=O)c1cccc2c1OCCO2 | HIV-1 | - | - | Protease | fluorescence | Ki | - | <0.001 µM
COC(=O)[C@@H](CC(C)C)N1C[C@@H]2O[C@H](C1=O)[C@H](C(=O)N1CCCCC1)O2 | HIV-1 | - | - | Protease | FRET | inhibition | 10 µM | 0%
COc1ccc(S(=O)(=O)N(C[C@@H](O)[C@H](Cc2ccccc2)NC(=O)O[C@H]2CO[C@H]3OCC[C@H]32)CC(C)(C)CCCN=[N+]=[N-])cc1 | HIV-1 | - | - | Protease | fluorescence | Ki | - | <0.001 µM
CC(=O)c1cc(C)n(-c2ccc(C(=O)O)c(O)c2)c1C | HIV-1 | - | - | gp41 | fluorescence | IC50 | - | 500 µg/mL